The exact form of at least one protein or probe is not confirmed. For part of these data: At least one verdict was read from the data and is not stated in words by the source.
Assays:
[1] = biological target: MogRD19ins 19-residue,insertion,between,sites,MIG,1 (Listeria monocytogenes) (UniProt P0DJO8); assay: FP; conditions: 20 mM Hepes pH 7.4, 150 mM NaCl, 5 mM bME; FP room temperature with 1 nM dsDNA; recombinant protein; residues 1-162
[2] = biological target: MogRD34ins 34-residue,insertion,between,sites,MIG,1 (Listeria monocytogenes) (UniProt P0DJO8); assay: FP; conditions: 20 mM Hepes pH 7.4, 150 mM NaCl, 5 mM bME; FP room temperature with 1 nM dsDNA; recombinant protein; residues 1-162
[3] = biological target: MogRD49ins 49-residue,insertion,between,sites,MIG,1 (Listeria monocytogenes) (UniProt P0DJO8); assay: FP; conditions: 20 mM Hepes pH 7.4, 150 mM NaCl, 5 mM bME; FP room temperature with 1 nM dsDNA; recombinant protein; residues 1-162
[4] = system: MogRD19ins + GmaRFL 19-residue,insertion,between,sites,MIG,1; assay: EMSA; conditions: heterotrimeric complex with GmaRFL; 20 mM Hepes pH 7.4, 150 mM NaCl, 5 mM bME; EMSA 18 C 30 min (GmaR inhibition assays at room temperature, 10 min, 2:1 MogR:dsDNA); recombinant protein; label: none (ethidium bromide stain)
[5] = system: MogRD34ins + GmaRFL 34-residue,insertion,between,sites,MIG,1; assay: EMSA; conditions: heterotrimeric complex with GmaRFL; 20 mM Hepes pH 7.4, 150 mM NaCl, 5 mM bME; EMSA 18 C 30 min (GmaR inhibition assays at room temperature, 10 min, 2:1 MogR:dsDNA); recombinant protein; label: none (ethidium bromide stain)
[6] = system: MogRD49ins + GmaRFL 49-residue,insertion,between,sites,MIG,1; assay: EMSA; conditions: heterotrimeric complex with GmaRFL; 20 mM Hepes pH 7.4, 150 mM NaCl, 5 mM bME; EMSA 18 C 30 min (GmaR inhibition assays at room temperature, 10 min, 2:1 MogR:dsDNA); recombinant protein; label: none (ethidium bromide stain)

The chains behind the UniProt entries cited, without tags or fusion partners. Where a name states a change or a piece, a line headed by the entry shows the natural chain unless it says otherwise.
UniProt P0DJO8: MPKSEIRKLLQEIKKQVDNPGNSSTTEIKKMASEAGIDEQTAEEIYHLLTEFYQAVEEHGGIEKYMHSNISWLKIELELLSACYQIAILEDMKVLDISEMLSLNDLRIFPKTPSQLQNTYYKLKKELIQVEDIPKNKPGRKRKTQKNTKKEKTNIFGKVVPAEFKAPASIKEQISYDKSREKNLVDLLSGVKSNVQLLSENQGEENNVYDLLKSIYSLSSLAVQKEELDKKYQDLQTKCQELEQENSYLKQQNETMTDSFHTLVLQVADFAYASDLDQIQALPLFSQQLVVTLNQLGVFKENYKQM

Measured: binding result

ATTTGATTTTTTAAAAAAATGAAGA (double strand) [operator dsDNA, fluorescein-labeled]
binds: [1] | [2] | [3]

ATTTGATTTTTTAAAAAAATGAAGA (double strand) [operator dsDNA, unlabeled]
binds: [4] | [5] | [6]

Reference: PMC9638930, “Structural basis of flagellar motility regulation by the MogR repressor and the GmaR antirepressor in Listeria monocytogenes” (Nucleic Acids Research, 2022)
